Values from PubChem BioAssay AID504761 (Drosophila RNAi Screening Center, 2011).

Test: 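Genome-wide fly cell screen for genes dengue virus requires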 (primary screen)
System: D.Mel-2 cells from Drosophila
Reagent: long dsRNA against Drosophila genes
Challenge: infection with dengue virus type 2; dose and infection time not stated
Measurement: 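Cells stained for dengue envelope protein and imaged; percent of infected cells per well on duplicate plates, ranked by infection, with stained nuclei counted for cell number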
Scale: infection score: higher = more virus-infected cells; cell count: higher = more cells in the well
Rule for the call: 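Low infection ranks in the two replicates (chance level up to 0.065) followed by a retest with a 1.5-fold or larger significant decrease, p below 0.05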
Meaning of the calls: active = confirmed: knock-down lowers infection; inactive = not picked or not confirmed
In all, the deposit lists about 22,000 reagents; this is a random part of those with a known target gene and a result. Over the whole deposit, 116 (0.52%) got an active call. 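Calls depend on retest data that are not deposited; infection was ranked per plate without normalising between plates; the unit of the infection score is not given.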 Raw values are not corrected between plates. Names joined by + are all predicted targets of the reagent. Not given: the amount of reagent, the time to read-out.

gene knocked down | amplicon | infection score, replicate 1 | infection score, replicate 2 | cell count, replicate 1 | cell count, replicate 2 | call
yip2 | DRSC03640 | 21.1 | 10.1 | 5218 | 5965 | inactive
Tbc1d8-9 | DRSC11820 | 3.88 | 12.2 | 5874 | 6699 | inactive
asun | DRSC16733 | 4.84 | 4.35 | 6635 | 6370 | inactive
CG14770 | DRSC17947 | 1.02 | 11.9 | 6395 | 4860 | inactive
CG14282 | DRSC14763 | 6.74 | 4.75 | 5905 | 6692 | inactive
CG14282 | DRSC26234 | 12.7 | 8.07 | 5108 | 3384 | inactive
CG4953 | DRSC02792 | 25.8 | 9.42 | 6298 | 6296 | inactive
CG13321 | DRSC06358 | 18.6 | 10 | 5615 | 6723 | inactive
CG13321 | DRSC27458 | 9.64 | 30.5 | 7248 | 5737 | inactive
Lint-1 | DRSC19822 | 0.99 | 1.53 | 5679 | 5836 | inactive
Lint-1 | DRSC28176 | 17 | 18.4 | 5513 | 6088 | inactive
CG3719 | DRSC18493 | 6.91 | 6 | 7015 | 6617 | inactive
Nubpl | DRSC03725 | 11.3 | 17.5 | 6582 | 6477 | inactive
Stt3B | DRSC16781 | 0.49 | 3 | 6083 | 6296 | inactive
senju | DRSC02366 | 2.16 | 1.94 | 1483 | 6790 | inactive
Nmdmc | DRSC16760 | – | 15.2 | 467 | 6079 | inactive
Nmdmc | DRSC26212 | 3.52 | 4.4 | 5960 | 5881 | inactive
CG9406 | DRSC04552 | 25.2 | 9.66 | 5948 | 5639 | inactive
CG14110 | DRSC10113 | 0.94 | 0.97 | 6067 | 6604 | inactive
az2 | DRSC07580 | 16.5 | 28.8 | 6545 | 5725 | inactive
CG12643 | DRSC17849 | 3.58 | 36.4 | 6447 | 6090 | inactive
CG12643 | DRSC24898 | 4.26 | 5.03 | 6385 | 6261 | inactive
CG3407 | DRSC00603 | 1.3 | 1.33 | 6756 | 5799 | inactive
sloth2 + sloth1 | DRSC17922 | 3.83 | 8.71 | 6501 | 6248 | inactive
sloth2 + sloth1 | DRSC17923 | 5.39 | 2.45 | 6564 | 6358 | inactive
CG4660 | DRSC18378 | 13.2 | 3.96 | 5744 | 5652 | inactive
CG4049 | DRSC04443 | 8.12 | 6.89 | 5699 | 5792 | inactive
CG4049 | DRSC29138 | 1.46 | 2.14 | 410 | 421 | inactive
PAPLA1 | DRSC03095 | 5.37 | 3.75 | 6500 | 6346 | inactive
PAPLA1 | DRSC03096 | 2.37 | 4.77 | 5811 | 6095 | inactive
CG18368 | DRSC06731 | 25.4 | 25.4 | 6367 | 5457 | inactive
CG18858 + CG31683 | DRSC26788 | 10.7 | 4.61 | 7324 | 6686 | inactive
PIG-Q | DRSC19138 | 3.1 | 1.38 | 6056 | 6068 | inactive
CG12061 | DRSC20715 | 1.37 | 4.21 | 5769 | 5649 | inactive
Rab32 | DRSC05146 | 3.11 | 3.61 | 5888 | 5849 | inactive
Rab32 | DRSC07522 | 31.5 | 8.95 | 4988 | 6513 | inactive
Rab32 | DRSC28156 | 27.4 | 15.9 | 5868 | 6586 | inactive
CG13308 | DRSC09979 | 1.19 | 1.77 | 6069 | 6441 | inactive
Spn | DRSC07986 | 3.88 | 0.5 | 6037 | 5644 | inactive
Spn | DRSC08490 | 7.39 | 4.86 | 6371 | 6442 | inactive
Spn | DRSC08491 | 6.47 | 25.4 | 6585 | 6261 | inactive
CG13359 | DRSC18539 | 7.26 | 6.41 | 4423 | 6861 | inactive
CG13359 | DRSC26791 | 9.26 | 17.7 | 7330 | 6545 | inactive
Sh3beta | DRSC11001 | 7.33 | 8.25 | 3002 | 5142 | inactive
Sh3beta | DRSC22053 | 2.2 | 12.8 | 6641 | 6091 | inactive
Sh3beta | DRSC27871 | 3.66 | 9.35 | 6721 | 6715 | inactive
Cp38 | DRSC18453 | 0.78 | 2.65 | 6512 | 6487 | inactive
CG3788 | DRSC04418 | 3.76 | 7.59 | 6230 | 6257 | inactive
CG3788 | DRSC24502 | 1.62 | 2.31 | 6046 | 6399 | inactive
CG6937 | DRSC16140 | – | – | 334 | 374 | inactive
CG6937 | DRSC23708 | 11.9 | 4.33 | 6282 | 6231 | inactive
Gos28 | DRSC16292 | 12.4 | 3.22 | 4933 | 5846 | inactive
Gos28 | DRSC22859 | 1.79 | 1.27 | 6049 | 6307 | inactive
CG13862 | DRSC14712 | 13.9 | 2.63 | 4018 | 7044 | inactive
Polr2E | DRSC06100 | 44.1 | 27.1 | 3860 | 4883 | inactive
Dbp21E2 | DRSC00616 | 1.22 | 2.07 | 5993 | 6902 | inactive
Dbp21E2 | DRSC28425 | 0.69 | 14.7 | 723 | 5443 | inactive
CG32191 | DRSC10522 | 5.57 | 4.38 | 6440 | 6024 | inactive
